Source: PMC11054274, “Dual Antitubercular and Antileishmanial Profiles of Quinoxaline Di-N-Oxides Containing an Amino Acidic Side Chain” (Pharmaceuticals, 2024)

What was measured:
Format in all cases: cell-based
Details in all cases: SI = CC50 (J774 macrophages)/IC50
[1] = tested on: Leishmania amazonensis amastigotes; test: Intracellular amastigote assay in J774 macrophages, L. amazonensis
Experimental: (§1) We performed an intracellular amastigote assay on L. amazonensis and L. donovani according to a fluorometric method reported by us. To carry out the in vitro macrophage infections, 5 × 10^4 cells were cultured in RPMI-1640 medium and then were infected with 5 × 10^5 promastigotes. In the L. donovani assays, the plates were incubated for 48 h at 37 °C, while in the L. amazonensis assays, they were incubated at 33 °C for the first 24 h and then the temperature was increased to 37 °C for the next 24 h. After, the culture medium was removed and the cells were washed with buffered RPMI-HEPES at pH 7.4 several times in order to eliminate the non-internalized promastigotes. A total of 100 µL of fresh medium tempered at 37 °C was added to the infected cells, which then were exposed to 100 µL of the test compounds in RPMI-1640 at different concentrations (100, 50, 25, 12.5, 6.25, 3.12, 1.56 and 0.78 µg/mL in a final volume of 200 µL) for 48 h at 37 °C. The culture medium was removed by centrifugation at 3500 rpm for 5 min (Centrifuge 5403 Eppendorf) and a lysis solution (0.02% sodium dodecyl sulfate in RPMI-HEPES) was added. After 20 min, the treated cells were harvested (centrifugation at 3500 rpm for 5 min at 4 °C) and the supernatants were replaced by 200 μL of fresh Schneider’s culture medium. The plates were then incubated at 26 °C for another 3 days to allow for the transformation of viable amastigotes into promastigotes and proliferation. Afterwards, 20 μL/well of 2.5 mM resazurin was added and incubated for another 3 h. Finally, URF was measured and IC50 was estimated as described above. All tests were carried out in triplicate. Miltefosine was used as the reference drug.

[2] = tested on: Leishmania donovani amastigotes; test: Intracellular amastigote assay in J774 macrophages, L. donovani
Experimental: as §1

[3] = tested on: Leishmania amazonensis promastigotes; test: Promastigote susceptibility assay (resazurin), L. amazonensis
Experimental: (§2) The following species of Leishmania were used: L. donovani (MHOM/IN/80/DD8), which was purchased (ATCC, Manassas, VA, USA), and L. amazonensis (MHOM/Br/79/Maria), which was kindly provided by Prof. Alfredo Toraño (Instituto de Salud Carlos III, Madrid, Spain). Promastigotes were cultured in Schneider’s Insect Medium supplemented with 10% heat-inactivated Fetal Bovine Serum (FBS) (SIGMA-Merck, Madrid, Spain) and 1000 U/L of penicillin plus 100 mg/L of streptomycin in 25 mL culture flasks at 26 °C.
(§3) The activity of the compounds on Leishmania promastigotes was performed according to the method previously reported by us. Briefly, promastigotes (2.5 × 10^5 parasites/well) were cultured in 96-well plastic plates. The compounds were dissolved in dimethylsulfoxide (DMSO). Serial dilutions at 1:2 of the test compounds in fresh culture medium were performed (100, 50, 25, 12.5, 6.25, 3.12, 1.56 and 0.78 µg/mL) in a final volume of 200 µL; the solutions were then added to the parasite suspension. […] Finally, the Relative Fluorescence Unit (RFU) (535ex–590em nm wavelength) was determined in a fluorimeter (Infinite 200 Tecan i-Control). Growth inhibition (%) was calculated by 100—[(RFU treated wells—RFU signal-to-noise)/(RFU untreated—RFU signal-to-noise) × 100]. All tests were carried out in triplicate and the IC50 was calculated by probit analysis using SPSS 17.0 Statistics Software. […]

[4] = tested on: Leishmania donovani promastigotes; test: Promastigote susceptibility assay (resazurin), L. donovani
Experimental: as §2, §3

| Compound | L. amazonensis amastigote selectivity index (SI) [1] | L. donovani amastigote selectivity index (SI) [2] | L. amazonensis promastigote selectivity index (SI) [3] | L. donovani promastigote selectivity index (SI) [4] |
| --- | --- | --- | --- | --- |
| N-(6-Methoxy-1,4-dioxide-3-(4-trifloromethylphenyl)quinoxaline-2-carbonyl)glycine methyl ester [Compound 4h] | 26.5 | 14.0 |  |  |
| COC(=O)CNC(=O)c1c(-c2ccccc2C)[n+]([O-])c2cc(OC)ccc2[n+]1[O-] [Compound 4k, N-(6-Methoxy-1,4-dioxide-3-(2-methylphenyl)quinoxaline-2-carbonyl)glycine methyl ester] |  | 4.6 |  |  |
| COC(=O)CNC(=O)c1c(-c2ccccc2)[n+]([O-])c2ccccc2[n+]1[O-] [Compound 4a, N-(1,4-Dioxide-3-phenylquinoxaline-2-carbonyl)glycine methyl ester] | 67.3 |  |  |  |
| N-(6-Methoxy-1,4-dioxide-3-(4-florophenyl)quinoxaline-2-carbonyl)glycine methyl ester [Compound 4i] | 29.9 | 5.3 |  |  |
| COC(=O)CNC(=O)c1c(-c2cccc(Cl)c2)[n+]([O-])c2cc(OC)ccc2[n+]1[O-] [Compound 4g, N-(6-Methoxy-1,4-dioxide-3-(3-chlorophenyl)quinoxaline-2-carbonyl)glycine methyl ester] | 310.6 | 92.8 |  |  |
| COC(=O)CNC(=O)c1c(-c2ccc(C(F)(F)F)cc2)[n+]([O-])c2cc(C)ccc2[n+]1[O-] [Compound 4l, N-(6-Methyl-1,4-dioxide-3-(4-trifluoromethylphenyl)quinoxaline-2-carbonyl)glycine methyl ester] |  |  | > 6.0 | > 6.0 |
| COC(=O)CNC(=O)c1c(-c2ccc(OC)cc2)[n+]([O-])c2ccccc2[n+]1[O-] [Compound 4b] |  |  |  | 6.0 |
| COC(=O)CNC(=O)c1c(-c2ccc(F)cc2)[n+]([O-])c2cc(C)ccc2[n+]1[O-] [Compound 4m, N-(6-Methyl-1,4-dioxide-3-(4-fluorophenyl)-quinoxaline-2-carbonyl)glycine methyl ester] | 6.11 and 6.1 | 1.6 |  |  |

Where “and” joins values, the source holds several entries; their conditions need not be identical. Identical values can stand only once.
